The test system of the assay is gram-positive and gram-negative pathogens. Kind of assay: Phenol-coefficient type assay, all pathogens tested (Tables 1 and 2). Type of assay: cell-based. Conditions: cultures held 72 hours.

Take d-limonene: the “emergence of resistance (mutagenic or plasmid transposon)” value was “no mutagenic or plasmid transposon was noted”.

The record behind these values is patent US20040131567A1 (priority 2002, published 2004).
